In publication PMC9452761:
The exact form of at least one protein or probe is not confirmed.

Tests used:
[1] = test system: His-Lon-His (Lon protease) (Burkholderia glumae BGR1); test: EMSA; conditions: 0.5 uM Lon, LightShift chemiluminescent EMSA (Pierce), biotin-labelled DNA, pH and temperature not given (as in Kim et al. 2007), recombinant protein, protein details: N- and C-terminal His (from the name), label: biotin
[2] = test system: GluR-His (Burkholderia glumae BGR1); test: EMSA; conditions: LightShift chemiluminescent EMSA (Pierce), biotin-labelled DNA; pH and temperature not given (as in Kim et al. 2007); recombinant protein; protein details: His tag; label: biotin

Row | Sequence | binding result ([1]; 1 nM labelled DNA, 50 nM unlabelled specific competitor) | binding result [2] | binding result ([1]; 0.5 nM labelled DNA, 25 nM unlabelled specific competitor)
1 | ACCTCTGGTACTTGAACGAACCCGGCGAATATCGGGCGAACGAACTACGAAAAATCGGGTGGGTGGAGTATCCACTGAATTTCCGCGCCAAGTAAAGGAGTGTCTAACGAGCGGCTTTACTCAACATCGCAGCACGGGTAAATTTTGTAACCGACTGTTACTCGCAAAATCCCGCGCCCGTGCGCCCCTTCGTAATCGCGATAAGATGCCGCCCATGGA (double strand) [gluR putative promoter region] | binds | – | –
2 | TGAGCGCGTTCACCTCGCAATTCCAGGCCTGGGCCGATGCCGCGCGCGACGGCGCCGCTCATACAAAGTGAGGTTTCGTGCGCCAAAAGTGCCGCGCGCGCGAGGCAGGCCGGCAAGAAGTTCGCCTGAGCAATCATGAGACTCGCACGAGGCCGTGCCCCGCCGTGCGCGAATCTCAAATCGGCATCATTGCTGAAGATTGCTCAGCCAAACTGAGAGTTCGAAAACGAGGCCCCGACTACATTGCTCGAACTGCGCCGCGATCCGGTGCCCAGGCAACAGCAAGGAGAGTCGCCTCATG (double strand) [hrpB putative promoter region] | – | binds | binds
